These results are taken from patent US5602278A (priority 1994, dated 1997).

For series [1], the system named is cell lines which lack the levels of reductive enzymes. As to conditions: Denny et al. 1994; cited from earlier work.
The nature of a further series: Stability. As to conditions: conditions not stated.
For series [2] the following is noted: cited from earlier work.

As for `O=C(O)CCCc1ccc([N+]([O-])(CCCl)CCCl)cc1`, the “hypoxic selectivity relative to chlorambucil” value in series [1] was “no enhancement of hypoxic selectivity beyond the value for chlorambucil”. In addition, the stability entry in “Stability” is “stable”. Also, the “rearrangement in aprotic solvents” value in series [2] is recorded as “rearranges in aprotic solvents to the more stable hydroxylamine derivative”.
